{"source": "PubChem BioAssay AID602399", "about": "(Sanford-Burnham Center for Chemical Genomics, 2012)", "note": "The entries are a selection whose mix differs from that of the whole data set. Activity calls are given as the source filed them. No stated cut-off is given here; in the data, active means inhibition above about 26%; inactive means the rest."}
{"tested_on": "Nicotinate-nucleotide adenylyltransferase NadD (Staphylococcus aureus N315)", "assay": "S. aureus NadD enzyme activity blockers – biochemical, colorimetric, uHTS, primary screen (AID 602399)", "settings": "purified NadD enzyme, colorimetric absorbance read-out; at 20 µM; active compounds read high"}
{"compound": "CP(=O)(Nc1cccc(Br)c1)Oc1ccccc1", "note": "(centres undefined)", "inhibition": "inactive: -8.08%"}
{"compound": "Cc1cc(C)cc(OP(C)(=O)Nc2ccccn2)c1", "note": "(centres undefined)", "inhibition": "inactive: -6.38%"}
{"compound": "Cc1ccc(C)c(NP(C)(=O)Oc2ccccc2)c1", "note": "(centres undefined)", "inhibition": "inactive: -1.87%"}
{"compound": "COc1ccccc1OP(C)(=O)Nc1cccc(Br)c1", "note": "(centres undefined)", "inhibition": "inactive: -2.66%"}
{"compound": "Cc1cc(C)cc(OP(C)(=O)Nc2ccc(C)cc2C)c1", "note": "(centres undefined)", "inhibition": "inactive: -5.54%"}
{"compound": "CCOC(=O)c1ccc(NP(C)(=O)Oc2cc(C)cc(C)c2)cc1", "note": "(centres undefined)", "inhibition": "inactive: -0.69%"}
{"compound": "CC1=NCCc2c1[nH]c1ccccc21.O=[N+]([O-])c1cc([N+](=O)[O-])c(O)c([N+](=O)[O-])c1", "inhibition": "inactive: -0.4%"}
{"compound": "O=C(O)c1cccc(Nc2c([N+](=O)[O-])cc([N+](=O)[O-])cc2[N+](=O)[O-])c1", "inhibition": "inactive: 1.41%"}
{"compound": "COc1ccccc1OP(C)(=O)Nc1c(C)cccc1C", "note": "(centres undefined)", "inhibition": "inactive: -5.74%"}
{"compound": "CN1CCCCC1COC(=O)C1(O)c2ccccc2CCc2ccccc21", "note": "(centres undefined)", "inhibition": "inactive: -4.03%"}
{"compound": "CP(=O)(Nc1ccc(SC(F)(F)F)cc1)Oc1ccccc1", "note": "(centres undefined)", "inhibition": "inactive: -2.85%"}
{"compound": "CCCOc1ccc(NP(C)(=O)Oc2ccc(Cl)cc2)cc1", "note": "(centres undefined)", "inhibition": "inactive: -3.23%"}
{"compound": "COc1ccc(-c2ccccn2)cc1.O=[N+]([O-])c1cc([N+](=O)[O-])c(O)c([N+](=O)[O-])c1", "inhibition": "inactive: 17.5%"}
{"compound": "O=[N+]([O-])c1cc([N+](=O)[O-])c(Nc2nnnn2CCO)c([N+](=O)[O-])c1", "inhibition": "inactive: -4.86%"}
{"compound": "CC1=C2N=C(C=C3N=C(C(C)=C4[N-][C@@](C)([C@@H]5N=C1[C@](C)(CCC(=O)NC[C@@H](C)OP(=O)([O-])O[C@H]1[C@@H](O)[C@@H](n6cnc7cc(C)c(C)cc76)O[C@@H]1CO)[C@H]5CC(N)=O)[C@@](C)(CC(N)=O)[C@@H]4CCC(N)=O)[C@@](C)(CC(N)=O)[C@@H]3CCC(N)=O)C(C)(C)[C@@H]2CCC(N)=O.[C-]#N.[Co+3]", "inhibition": "inactive: -0.141%"}
{"compound": "CCOC(=O)C(CC)C1=NC(C)(C)Cc2ccccc21.O=[N+]([O-])c1cc([N+](=O)[O-])c(O)c([N+](=O)[O-])c1", "note": "(centres undefined)", "inhibition": "inactive: -2.7%"}
{"compound": "O=[N+]([O-])c1cc([N+](=O)[O-])c(-c2cnn(-c3ccccc3)c2)c([N+](=O)[O-])c1", "inhibition": "inactive: -9.29%"}
{"compound": "Cc1nc2ccc3ccccc3c2s1.O=[N+]([O-])c1cc([N+](=O)[O-])c(O)c([N+](=O)[O-])c1", "inhibition": "inactive: -7.38%"}
{"compound": "O=[N+]([O-])c1cc([N+](=O)[O-])c(-n2nnc3ccccc32)c([N+](=O)[O-])c1", "inhibition": "inactive: 4.14%"}
{"compound": "CN(Cc1cccnc1)C(=O)COc1ccc(Cl)c(Cl)c1.O=[N+]([O-])c1cc([N+](=O)[O-])c(O)c([N+](=O)[O-])c1", "inhibition": "inactive: 1.06%"}
{"compound": "CCOP(C)(=S)SCC(=O)NC(C)C(=O)O", "note": "(centres undefined)", "inhibition": "inactive: -5.56%"}
{"compound": "CCOC(=O)c1ccc(NP(C)(=O)Oc2ccc(OC)cc2)cc1", "note": "(centres undefined)", "inhibition": "inactive: -2.93%"}
{"compound": "O=[N+]([O-])c1cc([N+](=O)[O-])c(O)c([N+](=O)[O-])c1.c1ccc(Oc2ccncc2)cc1", "inhibition": "inactive: 2.03%"}
{"compound": "CP(=O)(Nc1ccccn1)Oc1ccc(Cl)cc1", "note": "(centres undefined)", "inhibition": "inactive: -4.2%"}
{"compound": "Cc1ccc(Nc2c([N+](=O)[O-])cc([N+](=O)[O-])cc2[N+](=O)[O-])cc1", "inhibition": "inactive: -9.42%"}
{"compound": "Cc1cccc(C)c1OP(C)(=O)Nc1ccc(SC(F)(F)F)cc1", "note": "(centres undefined)", "inhibition": "inactive: -2.4%"}
{"compound": "CP(=O)(Nc1ccc(SC(F)(F)F)cc1)Oc1ccc(Cl)cc1", "note": "(centres undefined)", "inhibition": "inactive: -5.88%"}
{"compound": "CP(=O)(Oc1ccccc1)OC(c1ccccc1)C(F)(F)F", "note": "(centres undefined)", "inhibition": "inactive: -3.99%"}
{"compound": "CCc1ccc(OP(C)(=O)N2CCN(c3ccc([N+](=O)[O-])cc3)CC2)cc1", "note": "(centres undefined)", "inhibition": "inactive: -10.5%"}
{"compound": "CP(=O)(NC(=O)Nc1ccccc1)Oc1ccccc1", "note": "(centres undefined)", "inhibition": "inactive: -1.51%"}
{"compound": "Cc1cc(C)cc(OP(C)(=O)Nc2ccc(SC(F)(F)F)cc2)c1", "note": "(centres undefined)", "inhibition": "inactive: -3.64%"}
{"compound": "CP(=S)(Nn1cnnc1)Oc1ccccc1", "note": "(centres undefined)", "inhibition": "inactive: 1.04%"}
{"compound": "COc1ccccc1OP(C)(=O)Nc1ccccc1", "note": "(centres undefined)", "inhibition": "inactive: 8.75%"}
{"compound": "CP(=O)(Nc1ccccc1Br)Oc1ccccc1", "note": "(centres undefined)", "inhibition": "inactive: -3.31%"}
{"compound": "CCOC(=O)c1ccc(NP(C)(=O)Oc2ccccc2)cc1", "note": "(centres undefined)", "inhibition": "inactive: -5.15%"}
{"compound": "COc1ccccc1OP(C)(=O)Nc1ccc(C)cc1", "note": "(centres undefined)", "inhibition": "inactive: 2.35%"}
{"compound": "Cc1ccc(NP(C)(=O)Oc2ccccc2)c(C)c1", "note": "(centres undefined)", "inhibition": "inactive: -0.792%"}
{"compound": "COc1ccccc1OP(C)(=O)Nc1cc(Cl)ccc1C", "note": "(centres undefined)", "inhibition": "inactive: 0%"}
{"compound": "COc1ccc(OP(C)(=O)Nc2cccc(F)c2)cc1", "note": "(centres undefined)", "inhibition": "inactive: -1.52%"}
{"compound": "Cc1cc(C)cc(OP(C)(N)=O)c1", "note": "(centres undefined)", "inhibition": "inactive: -2.93%"}
{"compound": "O=[N+]([O-])c1cc([N+](=O)[O-])c(Nc2cccnc2)c([N+](=O)[O-])c1", "inhibition": "inactive: 1.73%"}
{"compound": "CC(C)(C)c1ccc(OP(C)(=O)Nc2ccc(SC(F)(F)F)cc2)cc1", "note": "(centres undefined)", "inhibition": "inactive: -3.62%"}
{"compound": "Cc1cccc(C)c1OP(C)(N)=O", "note": "(centres undefined)", "inhibition": "inactive: 2.24%"}
{"compound": "O=[N+]([O-])c1ccc2c(c1)C=Nc1ccccc1O2", "inhibition": "inactive: 3.63%"}
{"compound": "COc1ccccc1-c1ccccn1.O=[N+]([O-])c1cc([N+](=O)[O-])c(O)c([N+](=O)[O-])c1", "inhibition": "inactive: 10.6%"}
{"compound": "CCN(CC)CCCOC(=O)C(O)(c1ccccc1)c1ccccc1", "inhibition": "inactive: -6.78%"}
{"compound": "O=[N+]([O-])c1cc([N+](=O)[O-])c(Nc2ccccn2)c([N+](=O)[O-])c1", "inhibition": "inactive: 1.75%"}
{"compound": "Cc1c(NP(C)(=O)Oc2ccc(C(C)C)cc2)c(=O)n(-c2ccccc2)n1C", "note": "(centres undefined)", "inhibition": "inactive: -3.13%"}
{"compound": "CCc1ccc(OP(C)(=O)O)cc1", "inhibition": "inactive: 1.06%"}
{"compound": "CP(=O)(Nc1ccccn1)Oc1ccccc1", "note": "(centres undefined)", "inhibition": "inactive: 2.28%"}
{"compound": "COc1ccccc1OP(C)(=O)Nc1ccc(C)cc1C", "note": "(centres undefined)", "inhibition": "inactive: 5.63%"}
{"compound": "COc1ccccc1OP(C)(=O)Nc1ccc(Br)cc1", "note": "(centres undefined)", "inhibition": "inactive: -6.37%"}
{"compound": "CN(C)CCOC(=O)C(O)(c1ccccc1)C1CCCC1", "note": "(centres undefined)", "inhibition": "inactive: -2.47%"}
{"compound": "COc1ccc(OP(C)(=O)Nc2ccccn2)cc1", "note": "(centres undefined)", "inhibition": "inactive: -1.16%"}
